Target: SARS-CoV-2 S protein with the D614G mutation in the Wuhan-Hu-1 strain (SARS-CoV-2) (UniProt P0DTC2)

Substance: longHR2_42 (synthetic, unmodified extended HR2 peptide, residues 1162-1203) (from UniProt P0DTC2 1162-1203)
- IC50 of inhibition of VSV-SARS-CoV-2-D614G infection of Vero+TMPRSS2 cells: 900 pM

Source: publication PMC9546559, “Nanomolar inhibition of SARS-CoV-2 infection by an unmodified peptide targeting the prehairpin intermediate of the spike protein” (2022)
